Test results: US10561143B2, “Fungicidal composition having synergistic effect” (JIANGSU HUIFENG AGROCHEMICAL CO., LTD., priority 2013, dated 2020)
Where two headings read alike, the source gives them in different places.

Tests used:
[1] = tested on: rust pathogens of wheat
[2] = tested on: downy mildew pathogens of grape; test: Toxicity test on downy mildew pathogens of grape (disease index and control effect on whole grape plants, EC50 and co-toxicity coefficient); conditions: Table 1; (EC50 of standard/EC50 of test agent)*100, standard benziothiazolinone
[3] = Table 19, standard benziothiazolinone
[4] = Table 18, standard benziothiazolinone

O=[N+]([O-])c1cc(C(F)(F)F)c(Cl)c([N+](=O)[O-])c1Nc1ncc(C(F)(F)F)cc1Cl [Fluazinam]
ATI (actual toxicity index) ([1]; in vivo): 94.23

O=C(NCc1ncc(C(F)(F)F)cc1Cl)c1c(Cl)cccc1Cl [Fluopicolide]
ATI (actual toxicity index) [1, 3]: 103.12

O=c1[nH]sc2ccccc12 [Benziothiazolinone]
ATI (actual toxicity index) ([1]; Table 17, standard benziothiazolinone): 100 | ATI (actual toxicity index) [1, 4]: 100 | ATI (actual toxicity index) [1, 3]: 100 | ATI (actual toxicity index) [2]: 100

CC(C)OC(=O)N[C@H](C(=O)N[C@H](C)c1nc2ccc(F)cc2s1)C(C)C [Benthiavalicarb-isopropyl]
ATI (actual toxicity index) [2]: 82.98

Cl.O=c1[nH]sc2ccccc12 [Benziothiazolinone hydrochloride]
ATI (actual toxicity index) ([1]; Table 16, standard printed as benziothiazolinone hydrochloride): 100

OC(Cc1ccccc1Cl)(Cn1nc[nH]c1=S)C1(Cl)CC1 (stereo not shown) [Prothioconazole]
ATI (actual toxicity index) ([1]; in vivo): 103.13

CO/C=C(/C(=O)OC)c1ccccc1COc1cccc(C(F)(F)F)n1 [Picoxystrobin]
ATI (actual toxicity index) [1, 4]: 90.92
